Pooled drug test results. Numbers come from NIAID ChemDB, via PubChem.

Shared fields: tests in culture; species: Mycobacterium avium complex

Rows are shuffled and stem from different studies. A number after MIC or MFC names an inhibition level or a share of isolates. ECn is the concentration giving n% inhibition of infection, replication or growth. Blank or dashed fields: not listed here. Percent inhibition refers to the dose given; in toxicity tests it is the harm to the cells.

structure,strain or isolate,read by,read-out,dose,value
Nc1ccc(S(=O)(=O)c2ccc(N)cc2)cc1,DW28,-,MIC,-,>64 µg/mL
CCN=c1cc2n(-c3ccc(Cl)cc3)c3ccccc3nc-2cc1Nc1ccc(Cl)cc1,1017,-,MBC,-,64 µg/mL
CCc1cc(C(N)=S)ccn1,713 strains,agar,inhibition,5 µg/mL,5%
CC[C@H]1OC(=O)[C@H](C)[C@@H](OC(=O)c2ccccc2)[C@H](C)[C@@H](O[C@@H]2O[C@H](C)C[C@H](N(C)C)[C@H]2O)C(C)(O)C[C@@H](C)/C(=N\OCCCOc2ccccc2)[C@H](C)[C@@H](O)[C@]1(C)O,20039 (clarithromycin-susceptible),-,MIC,-,6.25 µg/mL
CN1CCCC1CCN=c1cc2n(-c3ccc(Cl)cc3)c3ccccc3nc-2cc1Nc1ccccc1,10 strains (HIV+),-,MIC90,-,0.83 µg/mL
CC[C@H]1OC(=O)[C@H](C)[C@@H](O[C@H]2C[C@@](C)(OC)[C@@H](OC(C)=O)[C@H](C)O2)[C@H](C)[C@@H](O[C@@H]2O[C@H](C)C[C@H](N(C)C)[C@H]2OC(=O)NNCc2ccccn2)C(C)(O)C[C@@H](C)/C(=N\OCCCC2CCCCC2)[C@H](C)[C@@H](O)[C@]1(C)O,20096 (clarithromycin-resistant),-,MIC,-,0.78 µg/mL
CC1(C)N=C(N)N=C(N)N1OCCCOc1cc(Cl)c(Cl)cc1Cl,DW6,-,MIC,-,16 µg/mL
CC1(C)N=C(N)N=C(N)N1OCCCOc1cc(Cl)c(Cl)cc1Cl,3028,-,MIC,-,2 µg/mL
CO[C@H]1/C=C/O[C@@]2(C)Oc3c(C)c(O)c4c(=O)c(c5oc6cc(N7CCN(CC(C)C)CC7)cc(=O)c6nc5c4c3=C2O)NC(=O)/C(C)=C\C=C\[C@H](C)[C@H](O)[C@@H](C)[C@@H](O)[C@@H](C)[C@H](OC(C)=O)[C@@H]1C,N-269 (HIV-),-,MIC,-,0.1 µg/mL
C[C@@H]1CN(c2c(F)c(N)c3c(=O)c(C(=O)O)cn(C4CC4)c3c2F)C[C@H](C)N1,Isolate 90-0779,-,MBC,-,1 µg/mL
CO[C@H]1/C=C/O[C@@]2(C)Oc3c(C)c(O)c4c(O)c(c5c(c4c3C2=O)NC2(CCN(CC(C)C)CC2)N=5)=NC(=O)/C(C)=C\C=C\[C@H](C)[C@H](O)[C@@H](C)[C@@H](O)[C@@H](C)[C@H](OC(C)=O)[C@@H]1C,800-4,-,MBC,-,1 µg/mL
CC[C@H]1OC(=O)[C@H](C)[C@@H](O[C@H]2C[C@@](C)(OC)[C@@H](OC(C)=O)[C@H](C)O2)[C@H](C)[C@@H](O[C@@H]2O[C@H](C)C[C@H](N(C)C)[C@H]2OC(=O)NNC2CCCCC2)C(C)(O)C[C@@H](C)/C(=N\OCCCC2CCCCC2)[C@H](C)[C@@H](O)[C@]1(C)O,20096 (clarithromycin-resistant),-,MIC,-,0.39 µg/mL
N[C@@H]1CONC1=O,14 strains,agar,EC50,-,<30 µg/mL
CC[C@H]1OC(=O)[C@H](C)[C@@H](OC2C[C@@](C)(OC)[C@@H](O)[C@H](C)O2)[C@H](C)[C@@H](O[C@@H]2O[C@H](C)C[C@H](N(C)C)[C@H]2O)C(C)(O)C[C@@H](C)/C(=N\OCc2ccccc2)[C@H](C)[C@@H](O)[C@]1(C)O,20039 (clarithromycin-susceptible),-,MIC,-,3.13 µg/mL
CO[C@H]1/C=C/O[C@@]2(C)Oc3c(C)c(O)c4c(O)c(c5c(c4c3C2=O)NC2(CCN(CC(C)C)CC2)N=5)=NC(=O)/C(C)=C\C=C\[C@H](C)[C@H](O)[C@@H](C)[C@@H](O)[C@@H](C)[C@H](OC(C)=O)[C@@H]1C,N-265 (HIV-),-,MIC,-,0.125 µg/mL
CC[C@H]1OC(=O)[C@H](C)[C@@H](O[C@H]2C[C@@](C)(OC)[C@@H](OC(C)=O)[C@H](C)O2)[C@H](C)[C@@H](O[C@@H]2O[C@H](C)C[C@H](N(C)C)[C@H]2O)C(C)(O)C[C@@H](C)/C(=N\OCCOc2ccccc2)[C@H](C)[C@@H](O)[C@]1(C)O,20039 (clarithromycin-susceptible),-,MIC,-,1.56 µg/mL
C[C@@H]1CN(c2c(F)c(N)c3c(=O)c(C(=O)O)cn(C4CC4)c3c2F)C[C@H](C)N1,N-979 (HIV+),-,MIC,-,0.25 µg/mL
CC[C@H]1OC(=O)[C@H](C)[C@@H](O[C@H]2C[C@@](C)(OC)[C@@H](OC(C)=O)[C@H](C)O2)[C@H](C)[C@@H](O[C@@H]2O[C@H](C)C[C@H](N(C)C)[C@H]2OC(=O)NNCc2ccc(OC)cc2)C(C)(O)C[C@@H](C)/C(=N\OCCCC2CCCCC2)[C@H](C)[C@@H](O)[C@]1(C)O,20096 (clarithromycin-resistant),-,MIC,-,0.78 µg/mL
CN[C@@H]1[C@H](O[C@H]2[C@H](O[C@H]3[C@H](O)[C@@H](O)[C@H](N=C(N)N)[C@@H](O)[C@@H]3N=C(N)N)O[C@@H](C)[C@]2(O)C=O)O[C@@H](CO)[C@H](O)[C@H]1O,N-980 (HIV+),-,MIC,-,4 µg/mL